SMILES strings stand for the structures.

The record followed here is US8039468B2, “Method of inhibition of respiratory depression using positive allosteric AMPA receptor modulators” (The Governors of the University of Alberta, priority 2006, dated 2011).

The data set relates to Sprague-Dawley rat. The experiment in a line: Whole-body plethysmography of frequency and depth of breathing in unrestrained rats. The settings on record: for behaviour or arousal state (spontaneous movement, agitation, sedation): P17 rat after fentanyl 130 μg/kg, Compound A 33 mg/kg or CX614 2.5 mg/kg i.p.
Where [1] appears, read: P17 rat, fentanyl 130 μg/kg i.p., then Compound A 33 mg/kg or CX614 2.5 mg/kg.

Turning to `O=C(c1ccc2nonc2c1)N1CCOCC1` [Compound A, 4-(benzofurazan-5-ylcarbonyl)morpholine], the “behaviour or arousal state (spontaneous movement, agitation, sedation)” value was “did not result in any obvious effect”. In addition, under “listed as 4-(benzofurazan-5-ylcarbonyl)morpholine”, the “behaviour or arousal state (spontaneous movement, agitation, sedation)” value was “without any obvious effect”. Moreover, under setting [1], the fentanyl-induced respiratory depression entry is recorded as “reversed” and the “time to reversal of fentanyl-induced respiratory depression” value is recorded as “within five-minutes”. Further, the “time to reversal of fentanyl-induced respiratory depression” value (P17 rat, fentanyl 130 μg/kg i.p., then Compound A 33 mg/kg or CX614 2.5 mg/kg, listed as 4-(benzofurazan-5-ylcarbonyl)morpholine) is not above 5 min. The fentanyl-induced respiratory depression entry (separate experiment, doses as low as 20 mg/kg) is given as “partially alleviated”.
